Experimental data: ChEMBL document CHEMBL1275377, “Structure-based design, synthesis, and structure-activity relationship studies of HIV-1 protease inhibitors incorporating phenyloxazolidinones” (J Med Chem, 2010)

Assay: Inhibition of multidrug resistant HIV1 protease L101I, L36P, A71V, G73S, I84V, L90M mutant by FRET
Design: species or system Human immunodeficiency virus 1

For `Cc1cccc(C)c1OCC(=O)N[C@@H](Cc1ccccc1)[C@@H](O)C[C@H](Cc1ccccc1)NC(=O)[C@H](C(C)C)N1CCCNC1=O` [LOPINAVIR], the Ki was 0.9 nM.
